{"source": "paper PMC10521975", "about": "“Species-specific cleavage of cGAS by picornavirus protease 3C disrupts mitochondria DNA-mediated immune sensing”", "system": "pcGAS full-length pre-cleaved by SVV 3C (Sus scrofa (porcine))", "experiment": "EMSA", "conditions": "pre-incubated with WT SVV 3C, 3C:pcGAS 2:1, RT 1 h; EMSA: 50 uM ISD45, pcGAS at DNA:protein 1:1 to 1:32, RT 1 h, 1% agarose in 40 mM Tris-HCl pH 9.2; recombinant protein; protein details: N-term His6-SUMO-FLAG, C-term HA", "note": "The exact form of at least one protein or probe is not confirmed. A weaker result is weaker than the reference pair of the same experiment."}
{"sequence": "TACAGATCTACTAGTGATCTATGACTGATCTGTACATGATCTACA (double strand) [ISD45]", "values": [{"measurement": "binding result", "result": "binds more weakly"}]}
